# PubChem BioAssay AID624099 – ICCB-Longwood, 2012
# Assay: 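Human genes that papillomavirus E2 requires to repress the HPV18 LCR promoter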 (primary screen)
# Cell system: human C33A cervical carcinoma cells (HPV-negative) stably expressing BPV1 E2 and an HPV18 LCR luciferase reporter
# Reagent: siRNA pool against human genes, 40 nM
# Time to read-out: 72 h
# Detection: 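Per-well luciferase luminescence, z-scored on each plate against the plate mean and SD with control wells left out, then averaged across three replicate plates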
# Scale: mean z-score and z-score: higher = stronger reporter signal, weaker E2 silencing
# Hit rule: 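Mean z ≥ 2 together with z ≥ 2 in two or more of the three replicates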
# This is an unselected part of about 21,000 deposited reagents. 497 of all reagents (2.4%) count as active. 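Higher z means weaker E2 silencing; only reporter increases were scored, and knock-downs that hurt cell survival may mask genuine repressor factors.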
Target gene,mean z-score,"z-score, replicate A","z-score, replicate B","z-score, replicate C",Outcome
CARS1,-0.09,-0.11,-0.05,-0.1,inactive
MUC5B,0.54,0.39,0.54,0.69,inactive
LOC400714 (retired record),-0.44,-0.56,-0.42,-0.34,inactive
OLFM4,0.11,0.04,0.04,0.26,inactive
HBG1,-1.56,-1.65,-1.63,-1.41,inactive
FZD9,0.16,0.47,0.21,-0.2,inactive
NUDT16,-1.37,-1.41,-1.36,-1.33,inactive
SENP3,-0.08,0.07,-0.2,-0.1,inactive
LOC390669 (retired record),-0.74,-0.75,-0.84,-0.62,inactive
SLC48A1,1.97,1.62,2.1,2.19,inactive
LINC02914,-0.99,-1.09,-0.73,-1.16,inactive
BOLA3,-0.28,-0.11,-0.41,-0.32,inactive
CKS2,0.09,-0.01,0.27,0.01,inactive
TEX56P,0.19,0.26,-0.05,0.37,inactive
LORICRIN,-0.69,-0.78,-0.64,-0.64,inactive

Records listed so far whose gene name begins with L or l (4):
Target gene,mean z-score,"z-score, replicate A","z-score, replicate B","z-score, replicate C",Outcome
LOC400714 (retired record),-0.44,-0.56,-0.42,-0.34,inactive
LOC390669 (retired record),-0.74,-0.75,-0.84,-0.62,inactive
LINC02914,-0.99,-1.09,-0.73,-1.16,inactive
LORICRIN,-0.69,-0.78,-0.64,-0.64,inactive

The list goes on:
Target gene,mean z-score,"z-score, replicate A","z-score, replicate B","z-score, replicate C",Outcome
DDOST,0.7,0.59,0.55,0.96,inactive
NXPH4,-0.35,-0.37,-0.53,-0.14,inactive
USP7P1,1.07,1.25,1.01,0.94,inactive
NRN1,-0.42,-0.37,-0.5,-0.39,inactive
PTEN,-0.59,-0.43,-0.77,-0.57,inactive
NEK1,0.94,0.56,1.64,0.63,inactive
OR9H1,-0.32,-0.03,-0.28,-0.66,inactive
ABCF1,0.42,0.18,0.1,0.97,inactive
NPTX1,-0.11,0.02,-0.04,-0.32,inactive
PGAP4,0.82,0.91,1,0.56,inactive
ARHGEF17,-0.77,-1.12,-0.38,-0.8,inactive
GPER1,1.11,1.26,1.41,0.66,inactive
GPR176,0.39,0,0.09,1.07,inactive
TAF13,1.15,0.98,1.57,0.91,inactive
NPBWR1,0.02,-0.23,0.37,-0.07,inactive
BMS1P15,-1.03,-1.13,-1.24,-0.72,inactive
MYH3,1.28,1.37,1.18,1.29,inactive
DSCC1,-0.76,-0.53,-1.14,-0.61,inactive
POFUT4,1.21,1.17,1.02,1.43,inactive
SLC22A24,-0.48,-0.28,-0.65,-0.49,inactive
RBM6,0.06,-0.12,-0.19,0.49,inactive
ANKIB1,1.72,1.86,1.69,1.61,inactive
AWAT1,2.65,2.48,2.78,2.69,active
DIPK1A,0.42,0.34,0.64,0.29,inactive
